Assay results from US9232799B2, “N-[(het)arylethyl)] pyrazole(thio)carboxamides and their heterosubstituted analogues” (BAYER INTELLECTUAL PROPERTY GMBH, priority 2010, dated 2016).

System: Fumonisin FB1 production
Assay: Inhibition of Fumonisin FB1 produced by Fusarium proliferatum
Type: cell-based
Details: table O

| SMILES | inhibition at 50 µM | % inhibition FB1 production (dose 50 μM) |
| --- | --- | --- |
| CC(Cc1ncc(C(F)(F)F)cc1Cl)N(C(=O)c1c(C(F)F)nn(C)c1F)C1CC1 (stereo not shown) [Example 188, N-{1-[3-chloro-5-(trifluoromethyl)pyridin-2-yl]propan-2-yl}-N-cyclopropyl-3-(difluoromethyl)-5-fluoro-1-methyl-1H-pyrazole-4-carboxamide] | 99% | – |
| CC(Cc1ncc(C(F)(F)F)cc1Cl)NC(=O)c1c(C(F)F)nn(C)c1F (stereo not shown) [Example 190, N-{1-[3-chloro-5-(trifluoromethyl)pyridin-2-yl]propan-2-yl}-3-(difluoromethyl)-5-fluoro-1-methyl-1H-pyrazole-4-carboxamide] | 100% | – |
| Cn1nc(C(F)F)c(C(=O)NCCc2ncc(C(F)(F)F)cc2Cl)c1F [Example 187] | – | 100% |
| COC(c1ccc(Cl)cc1Cl)C(C)NC(=O)c1c(C(F)F)nn(C)c1F (stereo not shown) [Example 73, N-[1-(2,4-dichlorophenyl)-1-methoxypropan-2-yl]-3-(difluoromethyl)-5-fluoro-1-methyl-1H-pyrazole-4-carboxamide] | 100% | – |
